Assay results taken from PubChem BioAssay AID488895 (Broad Institute, 2010).
The entries are a selection whose mix differs from that of the whole data set. Active and inactive are the calls of the source.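 The calls were made as follows: active = mean replicate inhibition at least 50% and at least half of replicates individually reaching 50%; inconclusive = only one of the two criteria met; inactive = neither criterion met.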

Experiment: blockers of twin-arginine translocation in E. coli – MC4100, TorA-mCherry reporter, fluorescence, single point, primary screen (AID 488895);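 also: exported cargo escapes ClpAP degradation while cytoplasmic cargo is degraded and loses fluorescence; 0% = median of neutral control wells and 100% = median of NaSCN control wells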
Conditions: E. coli MC4100 TorA-mCherry Tat export, at 10 µM, stronger effect = higher value

| SMILES | inhibition |
| --- | --- |
| O=P1(N(CCCl)CCCl)Nc2ccccc2N1 | inactive: -5.96% |
| O=P1(N(CCCl)CCCl)OCCCN1CCCl (stereo not given) | inactive: -2.04% |
| COc1cc(I)ccc1[As](=O)(O)O | inactive: -0.0135% |
| COc1ccc2nc(NP(=O)(c3ccccc3)c3ccccc3)sc2c1 | inactive: 0.391% |
| Cc1c2c(nc3ccccc13)SC(C(Cl)Cl)C2 (stereo not given) | inactive: -4.52% |
| Cc1cc(=O)[nH]c(N[N+](=O)[O-])n1 | inactive: -0.735% |
| O=C(OC1CN2CCC1CC2)C12CC3CC(CC(C3)C1)C2 (stereo not given) | inactive: 2.78% |
| O=[N+]([O-])c1cc(Oc2ccc([N+](=O)[O-])cc2C(F)(F)F)cc([N+](=O)[O-])c1 | inactive: -2.85% |
| COc1ccc(N/C(=N/P(=O)(N2CCOCC2)N2CCOCC2)N2CCOCC2)cc1 | inactive: 4.02% |
| Cc1cccc(OCC(=O)OC2CN3CCC2CC3)c1 (stereo not given) | inactive: -8.98% |
| O=[As](O)(c1cccc(O)c1)c1cccc(O)c1 | inactive: -1.22% |
| O=C(OC1CN2CCC1CC2)c1ccc(Cl)cc1 (stereo not given) | inactive: -4.64% |
| CS(=O)(=O)c1ccc(Cl)c(NC(=O)COC(=O)C(O)(c2ccccc2)c2ccccc2)c1 | inactive: -1.18% |
| O=[As](O)(O)c1cccnc1 | inactive: 25.8% |
| COc1cc(C(=O)NCC2(N3CCOCC3)CCCCC2)cc(Cl)c1OC(C)C | inactive: -1.54% |
| CCOP(=O)(Nc1cccc2ccccc12)OCC | inactive: 3% |
| COc1cc(C2NCCC3(OCCO3)C2(C)C)cc(OC)c1OC (stereo not given) | inactive: 12.7% |
| Nc1cccc2c([As](=O)(O)O)cccc12 | inactive: -16.8% |
| Cc1ccc(NCCc2c([N+](=O)[O-])cc([N+](=O)[O-])cc2[N+](=O)[O-])cc1 | inactive: 0.0805% |
| CCCOP(=S)(Nc1nc(N)cc(=O)[nH]1)OCCC | inactive: -4.82% |
| O=C(O)COc1ccc([As](=O)(O)O)cc1[N+](=O)[O-] | inactive: 1.17% |
| Nc1ccccc1[As](=O)(O)c1ccccc1 | inactive: -4.82% |
| O=P(Nc1nccs1)(Oc1ccccc1)Oc1ccccc1 | inactive: -5.4% |
| O=P(Nc1nccs1)(c1ccccc1)c1nc2ccccc2s1 (stereo not given) | inactive: -5.7% |
| CCOP1(=S)c2c(C)nn(CCC#N)c2N=C(c2ccccc2F)N1C (stereo not given) | inactive: 3.49% |

| SMILES | inhibition |
| --- | --- |
| CS(=O)(=O)c1cc([N+](=O)[O-])c2no[n+]([O-])c2c1 | inactive: -13.7% |
| CCOP1(=S)c2c(C)nn(CCC#N)c2N=C(c2ccc(F)cc2)N1C (stereo not given) | inactive: -1.99% |
| CN(C(=O)Cc1ccccc1)[C@@H]1CC[C@]2(CCCO2)C[C@H]1N1CCCC1 | inactive: -10.2% |
| N#CCCN(C(=O)COC(=O)C(O)(c1ccccc1)c1ccccc1)c1ccc(F)cc1 | inactive: -3.72% |
| CN(C(=O)Cc1ccc(Cl)c(Cl)c1)[C@H]1CC[C@@]2(CCCO2)C[C@@H]1N1CCCC1 | inactive: -3.05% |
| O=[N+]([O-])c1ccc2c(c1)nnn2O | inactive: -1.57% |
| CN(C)C(=O)c1cc([N+](=O)[O-])cc2c1-c1c(cc([N+](=O)[O-])cc1[N+](=O)[O-])C2=O | inactive: -5.42% |
| NC(=O)Nc1ccc([As](=O)(O)O)cc1 | inactive: 1.33% |
| CN(C)C1(CNC(=O)c2ccc(S(C)(=O)=O)cc2)CCCCC1 | inactive: -1.23% |
| CCCC1OP(=O)(Nc2ccccc2)OCC1CC (stereo not given) | inactive: 0.483% |
| O=C(/C=C/c1ccccc1)OC1CN2CCC1CC2 (stereo not given) | inactive: 18.6% |
| Cc1ccc(C(=O)OC2CN3CCC2CC3)cc1 (stereo not given) | inactive: 2.55% |
| CC1CCC(C(C)C)C(OP(=O)(Nc2ccccn2)c2ccccc2)C1 (stereo not given) | inactive: 13.4% |
| Cc1nn(-c2ccccc2)c2c1P(=O)(N1CCOCC1)N(C)C(c1ccccc1)=N2 (stereo not given) | inactive: -3.07% |
| Nc1cccc([As](=O)(O)c2ccccc2)c1 | inactive: -1.75% |
| O=[As](O)(c1cccs1)c1cccs1 | inactive: -3.53% |
| Cc1ccc(OCC(=O)OC2CN3CCC2CC3)cc1 (stereo not given) | inactive: -6.04% |
| NS(=O)(=O)c1cccc(NC(=O)COC(=O)C(O)(c2ccccc2)c2ccccc2)c1 | inactive: 6.37% |
| O=P1(Nc2ccc(Br)cn2)COc2ccccc2OC1 | inactive: 0.0286% |
| O=P1(Nc2ncccn2)COc2ccccc2OC1 | inactive: -8.62% |
| CC(C)(C)C(=O)NC(Sc1ncccn1)C(Cl)(Cl)Cl (stereo not given) | inactive: -6.22% |
| Clc1n[nH]nc1-c1nn[nH][15n]1 | inactive: -5.89% |
| CCOP(=O)(NC(=NC(C)c1ccccc1)NC(C)c1ccccc1)OCC (stereo not given) | inactive: 1.29% |
| CCC1=CC2Cc3nc4ccc(Cl)cc4c(N)c3C(C1)C2 (stereo not given) | inactive: 7.77% |
| O=P1(Nc2ccccn2)COc2ccccc2OC1 | inactive: 4.76% |

| SMILES | inhibition |
| --- | --- |
| CCOP(=O)(Nc1ccc(C)cn1)OCC | inactive: 4.51% |
| CN(C(=O)Cc1ccc(Cl)c(Cl)c1)[C@@H]1CCCC[C@H]1N1CCCC1 | inactive: -3.64% |
| CC(C)/C=N\N=C(\N)N[N+](=O)[O-] | inactive: 8.62% |
| CC1(CBr)Cn2c(nc3ccccc3c2=O)S1 (stereo not given) | inactive: 0.389% |
| COc1ccccc1CNC(=O)COC(=O)C(O)(c1ccccc1)c1ccccc1 | inactive: -2.54% |
| c1nnnn1CCn1cnnn1 | inactive: 12.4% |
| O=P(Nc1nccs1)(c1ccccc1)c1ccccc1 | inactive: -2.49% |
| CC(C)C(=O)NC(Sc1ccccc1)C(Cl)(Cl)Cl (stereo not given) | inactive: 10.1% |
| C[C@H]1OP(=O)(Oc2ccccc2)[C@H](O)[C@H](O)[C@H]1N=[N+]=[N-] (stereo not given in full) | inactive: -4.98% |
| O=P(Nc1nc2ccccc2s1)(c1ccccc1)c1ccccc1 | inactive: 4.03% |
| CN(C)C1(CNC(=O)c2ccc(Cl)c(S(N)(=O)=O)c2)CCCCC1 | inactive: 8.88% |
| O=P(Nc1ccccn1)(c1ccc(Br)cc1)c1ccc(Br)cc1 | inactive: 3.42% |
| COc1ccc(N)c([N+](=O)[O-])c1[N+](=O)[O-] | inactive: -2.69% |
| O=C(OC1CN2CCC1CC2)c1cccc(Cl)c1 (stereo not given) | inactive: -4.2% |
| C(Cc1nn[nH]n1)Cc1nn[nH]n1 | inactive: -8.37% |
| Nc1ccc([As](=O)(O)c2ccc([N+](=O)[O-])cc2)cc1 | inactive: 7.59% |
| O=[As](O)(c1ccccc1)c1ccc(O)cc1 | inactive: 1.15% |
| O=[N+]([O-])c1ncn(CCn2cnc([N+](=O)[O-])n2)n1 | inactive: -4.56% |
| CC(=O)NC(SC(=S)N(C)C)C(Cl)(Cl)Cl (stereo not given) | inactive: -14.3% |
| O=[N+]([O-])c1ccc(O)c(/C=N/Nc2ccc([N+](=O)[O-])cc2[N+](=O)[O-])c1 | inactive: -1% |
| O=P1(N(CCCl)CCCl)OCCC2CCCCN21 (stereo not given) | inactive: 8.96% |
| Cc1ccc(NP(=O)(Oc2cccc(C)c2)Oc2cccc(C)c2)nc1 | inactive: -6.7% |
| c1ccc(-c2nn[nH]n2)c(-c2nn[nH]n2)c1 | inactive: -6.5% |
| O=C(NC1CCS(=O)(=O)C1)NP(=S)(Oc1ccccc1)Oc1ccccc1 (stereo not given) | inactive: 0.201% |
| CCNC(=S)/N=C(\N)N[N+](=O)[O-] | inactive: -7.96% |

| SMILES | inhibition |
| --- | --- |
| O=c1c2cc([N+](=O)[O-])ccc2[nH]c2c([N+](=O)[O-])cc([N+](=O)[O-])cc12 | inactive: -1.27% |
| CN(C)C(=O)Oc1noc2ccccc12 | inactive: 0.751% |
| CC(NC(=O)COC(=O)C(O)(c1ccccc1)c1ccccc1)c1ccccc1 (stereo not given) | inactive: 10.3% |
| Cc1ccccc1OP(=O)(Nc1ccccn1)Oc1ccccc1C | inactive: 17.4% |
| CCC(=O)N1C2C3N(C(=O)CC)C1C1N(C(=O)CC)C(C(N1C(=O)CC)N3C(=O)CC)N2C(=O)CC | inactive: 0.618% |
| O=C(OC1CN2CCC1CC2)c1ccccc1 (stereo not given) | inactive: 7.11% |
| Cc1ccc(OP(=O)(Nc2ccccn2)Oc2ccc(C)cc2)cc1 | inactive: 0.649% |
| CC(=O)NC(SC(=S)N(CC(C)C)CC(C)C)C(Cl)(Cl)Cl (stereo not given) | inactive: -9.74% |
| COC(=O)c1cc2c(s1)N=C(c1ccccc1)N(C)P2(=O)N1CCOCC1 (stereo not given) | inactive: 1.34% |
| CC(C)(C)C(=O)NC(Sc1ccccc1)C(Cl)(Cl)Cl (stereo not given) | inactive: -1.73% |
| CCc1cc(O)c([N+](=O)[O-])c(C)c1[N+](=O)[O-] | inactive: 8.14% |
| CCOc1ccc(C2=NCC(CBr)S2)cc1 (stereo not given) | inactive: -4% |
| O=P1(Nc2nc3ccc(Cl)cc3s2)COc2ccccc2O1 (stereo not given) | inactive: 2.27% |
| CC(=O)Nc1ccc(Oc2c([N+](=O)[O-])cc([N+](=O)[O-])cc2[N+](=O)[O-])cc1 | inactive: 3.17% |
| CC(=O)Nc1ccc([As](=O)(O)O)c(O)c1 | inactive: -0.454% |
| C[C@H]1OP(=O)(Oc2ccccc2)C[C@@H]2O[C@@H]21 (stereo not given in full) | inactive: -10.2% |
| C[C@@H]1C=CCP(=O)(Oc2ccccc2)O1 (stereo not given in full) | inactive: -0.0297% |
| Cc1ccccc1CN(C)C(=O)COC(=O)C(O)(c1ccccc1)c1ccccc1 | inactive: -1.68% |
| COC(=O)C1(C)COP(=O)(NCc2ccccc2)OC1 (stereo not given) | inactive: 1.53% |
| CC(=O)c1ccc(N2CC2c2ccncc2)cc1 (stereo not given) | inactive: -1.89% |
| N#C/C(=C\c1ccc(N(CCBr)CCBr)cc1)C(N)=O | inactive: -4.8% |
| CN1CCCC(OC(=O)C(c2ccccc2)c2ccccc2)C1 (stereo not given) | inactive: 4.64% |
| Clc1ccc(Cl)c(NC2=NCC(CBr)S2)c1 (stereo not given) | inactive: 2.72% |
| COc1ccccc1OP(=O)(Nc1ccc(C)cn1)Oc1ccccc1OC | inactive: -4.16% |
| Cc1ccc(N/C(=N/P(=O)(N2CCOCC2)N2CCOCC2)N2CCOCC2)cc1 | inactive: 19.7% |
